Pooled drug test results. Numbers come from NIAID ChemDB, via PubChem.

Shared fields: tests in culture; organism: HIV-1; cell line: MT-4; measure: fold resistance

Blank or dashed fields: not listed here.

structure,strain,changes,read by,value
Cc1cn([C@H]2C[C@H](N=[N+]=[N-])[C@@H](COC(=O)NCCSC(=O)OC[C@H]3O[C@@H](n4cc(C)c(=O)[nH]c4=O)C[C@@H]3N=[N+]=[N-])O2)c(=O)[nH]c1=O,EFV-resistant (RT K103R V179D P225H),RT-K103R V179D P225H,cytopathic effect / MTT,0.2
CC(C)CN(C[C@@H](O)[C@H](Cc1ccccc1)NC(=O)[C@H](CC(N)=O)NC(=O)c1ccc2ccccc2n1)C(=O)NC(C)(C)C,NL4-3,PR-L63P,p24,1
CC(C)c1nc(CN(C)C(=O)N[C@H](C(=O)N[C@@H](Cc2ccccc2)C[C@H](O)[C@H](Cc2ccccc2)NC(=O)OCc2cncs2)C(C)C)cs1,NRTI resistant,RT K70R T215Y 69SS A62V E79K V118I M184V E203K L210W,cytopathic effect / MTT,1.3
O=c1[nH]cnc2c1ncn2[C@H]1CC[C@@H](CO)O1,DI-06.92 (HXB2 RT-K70R),RT-K70R,cytopathic effect,0.21
O=c1[nH]cnc2c1ncn2[C@H]1CC[C@@H](CO)O1,XM-AZT-resistant,RT-M41L D67N K70R T215Y K219Q,p24,1.6
Nc1ccn([C@H]2CC[C@@H](CO)O2)c(=O)n1,Recombinant mutant,RT-A98S,cytopathic effect / MTT,0.3
Cc1nnc(C[C@H](C[C@H](O)CN2CCN(Cc3ccc(-c4ccc(Cl)cc4)o3)C[C@H]2C(=O)NCC(F)(F)F)C(=O)N[C@H]2c3ccccc3OC[C@H]2O)o1,K-60 Clinical isolate,PR-L10I M46I I54V Q58E L63P I64V V77I V82F I84V L90M I93L,p24,0.49
CC(=O)Oc1ccc(/C=C/C(=O)O[C@@H](C(=O)O)[C@@H](OC(=O)/C=C/c2ccc(OC(C)=O)c(OC(C)=O)c2)C(=O)O)cc1OC(C)=O,NL4-3,DS-resistant,cytopathic effect / MTT,>9
CCCc1nnc(C[C@H](C[C@H](O)CN2CCN(C(C)(C)c3ncc(-c4ccc(F)cc4)o3)C[C@H]2C(=O)NCC(F)(F)F)C(=O)N[C@H]2c3ccccc3OC[C@H]2O)o1,V-18 Clinical isolate,PR-L10I M36I N37D M46I R57K L63P A71V G73S I84V L90M I93L,p24,3.9
O=c1[nH]cnc2c1ncn2[C@H]1CC[C@@H](CO)O1,NNRTI-resistant (RT K103N Y181C),RT-K103N Y181C,cytopathic effect / MTT,0.9
O=c1[nH]cnc2c1ncn2[C@H]1CC[C@@H](CO)O1,HXB2-D294 (RT-P294S),RT-P294S,RT activity,0.885
COc1ccc2c(c1)N(C(=O)OC(C)C)[C@@H](CSC)C(=S)N2,HXB2 (RT E138A S162C E169D T200A L214F) Clinical isolate,RT-E138A S162C E169D T200A L214F,cytopathic effect / MTT,6
Fc1cccc(F)c1Cn1c(-c2c(F)cccc2F)nc2c(Br)cccc21,,RT-K103N,cytopathic effect / MTT,20.4
COC(=O)N[C@H](C(=O)N[C@@H](Cc1ccccc1)[C@@H](O)CN(Cc1ccc(-c2ccccn2)cc1)NC(=O)[C@@H](NC(=O)OC)C(C)(C)C)C(C)(C)C,NL4-3,L10I I15V K20R L24I V32I M36I M46I L63P K70Q V82A I84V L89M,p24 / luminescence,>213
Cc1cn([C@H]2C[C@H](N=[N+]=[N-])[C@@H](CO)O2)c(=O)[nH]c1=O,,RES056,MTT,0.7
Nc1ccn([C@H]2CC[C@@H](CO)O2)c(=O)n1,IIIB 3TC (RT-M184V),RT-M184V,p24,5.56
O=C1N(Cc2ccc(CO)cc2)[C@H](COc2ccccc2)[C@H](O)[C@@H](O)[C@@H](COc2ccccc2)N1Cc1ccc(CO)cc1,IIIB,PR-G48V L90M,cytopathic effect / XTT,0.186
CCc1c(C)[nH]c(=O)c(N(C)C)c1C(=O)c1cc(C)cc(C)c1,,RT-E138K,cytopathic effect / MTT,1.25
CCCc1nnc(C[C@H](C[C@H](O)CN2CCN(C(C)(C)c3ncc(-c4ccc(Cl)cc4)o3)C[C@H]2C(=O)NCC(F)(F)F)C(=O)N[C@H]2c3ccccc3OC[C@H]2O)o1,K-60 Clinical isolate,PR-L10I M46I I54V Q58E L63P I64V V77I V82F I84V L90M I93L,p24,≥2
CCc1c(C)[nH]c(=O)c(N(C)C)c1C(=O)c1cccc(Br)c1,,RT-Y181C,cytopathic effect / MTT,79
COC(=O)c1cccc2c1nc(-c1c(F)cccc1F)n2Cc1c(F)cccc1F,,RT-Y188H,cytopathic effect / MTT,1.58
CCCc1nnc(C[C@H](C[C@H](O)CN2CCN(Cc3ccc(-c4ccc(Cl)cc4)o3)C[C@H]2C(=O)NCC(F)(F)F)C(=O)N[C@H]2c3ccccc3OC[C@H]2O)o1,K-60 Clinical isolate,PR-L10I M46I I54V Q58E L63P I64V V77I V82F I84V L90M I93L,p24,1
CCn1c(=O)c(C)cn([C@@H]2O[C@H](CO[Si](C)(C)C(C)(C)C)C3(OS(=O)(=O)C=C3N)[C@H]2O[Si](C)(C)C(C)(C)C)c1=O,Recombinant mutant,RT-A98S E138A,cytopathic effect / MTT,15
CC(=O)Nc1cccc2c1nc(-c1c(F)cccc1F)n2Cc1c(F)cccc1F,,RT-K101E,cytopathic effect / MTT,>12.5
CCc1c(C)[nH]c(=O)c(N(C)C)c1Cc1cccc(/C=C/C#N)c1,,RT-Y181C,cytopathic effect / MTT,40
Nc1ccn([C@H]2CC[C@@H](CO)O2)c(=O)n1,IIIB-AZT-1 (RT D67N K70R V108A I135T T215Y),RT-D67N K70R V108A I135T T215Y,,1.57
Cc1cn([C@H]2C[C@H](N=[N+]=[N-])[C@@H](CO)O2)c(=O)[nH]c1=O,HXB2-D (RT K65R M184V),RT-K65R M184V,p24,1.08
CCc1c(C)[nH]c(=O)c(N(C)C)c1C(=O)c1cc(Cl)cc(Cl)c1,,RT-K103N,cytopathic effect / MTT,6.5
CCN[C@H]1CO[C@@H]2OCC[C@H](OC(=O)N[C@@H](Cc3ccccc3)[C@H](O)CN(CC(C)C)S(=O)(=O)c3ccc4nc(NC5CC5)sc4c3)[C@@H]21,NL4-3,L10F K20T D30N K45I A71V V77I,p24 / luminescence,1
Cc1cc(C#N)cc(C)c1Oc1nc(Nc2ccc(C#N)cc2)ncc1SCC(=O)N1CCSCC1,,Y188L,MTT,4.6
CCc1c(C)[nH]c(=O)c(N(C)C)c1C(=O)c1cccc(/C=C/C#N)c1,,RT-Y188L,cytopathic effect / MTT,158
CCCc1nnc(C[C@H](C[C@H](O)CN2CCN(C(C)(C)c3ncc(-c4cncc(OC)c4)o3)C[C@H]2C(=O)NCC(F)(F)F)C(=O)N[C@H]2c3ccccc3OC[C@H]2O)o1,V-18 Clinical isolate,PR-L10I M36I N37D M46I R57K L63P A71V G73S I84V L90M I93L,p24,>2
Cc1cn([C@H]2C=C[C@@H](CO)O2)c(=O)[nH]c1=O,AJ-05.93 (HXB2(RT-L74V)),RT-L74V,cytopathic effect,62.4
CC(=O)c1ccc(C)cc1NC(C(N)=O)c1c(Cl)cccc1Cl,HXB2 (RT E138A S162C E169D T200A L214F) Clinical isolate,RT-E138A S162C E169D T200A L214F,cytopathic effect / MTT,33
CC(C)c1nc(CN(C)C(=O)N[C@H](C(=O)N[C@@H](Cc2ccccc2)C[C@H](O)[C@H](Cc2ccccc2)NC(=O)OCc2cncs2)C(C)C)cs1,NL4-3-P28 (PR M46I I84V),PR-M46I I84V,p24,18
CN[C@H]1CO[C@@H]2OCC[C@H](OC(=O)N[C@@H](Cc3ccccc3)[C@H](O)CN(CC(C)C)S(=O)(=O)c3ccc4nc(NC5CC5)sc4c3)[C@@H]21,NL4-3,L10I I54V K20R L24I V32I L33F M36I M46I I54M L63P K70Q V82I I84V L89M,p24 / luminescence,9
Nc1ccn([C@H]2CC[C@@H](CO)O2)c(=O)n1,LZ-07.96 (HXB2 RT T69N L74I Q151M M184V),RT-T69N L74I Q151M M184V,cytopathic effect,>23.4
CC(=O)c1ccccc1NC(C(N)=O)c1c(Cl)cccc1Cl,R88703-resistant IIIB (RT Y181C),RT-Y181C,p24,>66.7
C/C=C/c1cccc(C(=O)c2c(CC)c(C)[nH]c(=O)c2N(C)C)c1,,RT-Y188L,cytopathic effect / MTT,796
Nc1cccc2c1nc(-c1c(F)cccc1F)n2Cc1c(F)cccc1F,,RT-L74V,cytopathic effect / MTT,0.6
Cc1cn([C@H]2C[C@H](N=[N+]=[N-])[C@@H](CO)O2)c(=O)[nH]c1=O,XM-M184V,RT-M184V,p24,0.5
CC(C)(C)NC(=O)[C@@H]1C[C@@H]2CCCC[C@@H]2CN1C[C@@H](O)[C@H](Cc1ccccc1)NC(=O)[C@H](CC(N)=O)NC(=O)c1ccc2ccccc2n1,NL4-3,PR-M46I L63P,p24,1
CCc1c(C)[nH]c(=O)c(N(C)C)c1C(=O)c1cccc(C#N)c1,,RT-E138K,cytopathic effect / MTT,2
O=C(N[C@H]1c2ccccc2OC[C@H]1O)[C@H](Cc1nnco1)C[C@H](O)CN1CCN(Cc2ccc(-c3ccc(Cl)cc3)o2)C[C@H]1C(=O)NCC(F)(F)F,V-18 Clinical isolate,PR-L10I M36I N37D M46I R57K L63P A71V G73S I84V L90M I93L,p24,1.98
CC(C)CN(C[C@@H](O)[C@H](Cc1ccccc1)NC(=O)O[C@H]1CCO[C@H]2OCC[C@H]21)S(=O)(=O)c1ccc2nc(NC3CC3)sc2c1,NL4-3,L10I I15V K20R L24I V32I M36I M46I I54V I62V L63P K70Q V82A L88M,p24 / luminescence,57
CCc1cc(NCc2nc3c(Cl)ccc(Cl)c3o2)c(=O)[nH]c1C,NL4-3,RT-V108I,p24,4
CN[C@H]1CO[C@@H]2OCC[C@H](OC(=O)N[C@@H](Cc3cccc(OC)c3)[C@H](O)CN(CC(C)C)S(=O)(=O)c3ccc4nc(NC(C)C)sc4c3)[C@@H]21,NL4-3,L10F V32I L33F M46L I54M A71V,p24 / luminescence,1.2
CC(C)=CCN1c2cc(Cl)cc3[nH]c(=S)n(c23)C[C@@H]1C,,RT-D67N K70R T215Y K219Q K103N,,8
CC(C)=CCN1Cc2cc(Cl)cc3[nH]c(=S)n(c23)C[C@@H]1C,Recombinant mutant,RT-E138A,cytopathic effect / MTT,2.3
CC(=O)Oc1ccc(/C=C/C(=O)O[C@@H](C(=O)O)[C@@H](OC(=O)/C=C/c2ccc(OC(C)=O)c(OC(C)=O)c2)C(=O)O)cc1OC(C)=O,NL4-3,AR117-resistant,,>9.25
Cc1cn([C@H]2C=C[C@@H](COC(=O)NCCSC(=O)OC[C@@H]3CC[C@H](n4cnc5c(=O)[nH]cnc54)O3)O2)c(=O)[nH]c1=O,NNRTI-resistant (RT K103N Y181C),RT-K103N Y181C,cytopathic effect / MTT,>0.465
CCc1c(C)[nH]c(=O)c(N(C)C)c1C(=O)c1cccc(/C(C)=C(\C)C#N)c1,,RT-Y181C,cytopathic effect / MTT,21

A second listing of 3 rows from above:

structure,strain,changes,read by,value
CCc1c(C)[nH]c(=O)c(N(C)C)c1C(=O)c1cccc(/C(C)=C(\C)C#N)c1,,RT-Y181C,cytopathic effect / MTT,21
CN[C@H]1CO[C@@H]2OCC[C@H](OC(=O)N[C@@H](Cc3cccc(OC)c3)[C@H](O)CN(CC(C)C)S(=O)(=O)c3ccc4nc(NC(C)C)sc4c3)[C@@H]21,NL4-3,L10F V32I L33F M46L I54M A71V,p24 / luminescence,1.2
Cc1cc(C#N)cc(C)c1Oc1nc(Nc2ccc(C#N)cc2)ncc1SCC(=O)N1CCSCC1,,Y188L,MTT,4.6

Fold resistance: result on the changed form divided by that on wild type. Neighbouring rows are from separate reports.